Reference: patent US20060134092

Legend:
[1] = target: sheep prion protein, P23907

B1: enzyme composition A used in the present invention (protein)
chain: AQTVPYGIPLIKADKVQAQGYKGANVKVGIIDTGIASSHTDLKVVGGASFVSGESYNTDGNGHGTHVAGTVAALDNTTGVLGVAPNVSLYAIKVLNSSGSGTYSAIVSGIEWATQNGLDVINMSLGGPSGSTALKQAVDKAYASGIVVVAAAGNSGSSGSQNTIGYPAKYDSVIAVGAVDSNKNRASFSSVGSELEVMAPGVSVYSTYPSNTYTSLNGTSMASPHVAGAAALILSKYPTLSASQVRNRLSSTATNLGDSFYYGKGLINVEAAAQ
Question: B1 was tested. Which “digestion of pathogenic prion protein in 1% brain homogenate, Western blot” value [1] did it give?
Answer: Its value is “the pathogenic prion protein was almost completely digested at any concentration”.

B2: purified enzyme used in the present invention, from Bacillus licheniformis MSK-103 (FERM BP-08487) (protein)
chain: AQTVPYGIPLIKADKVQAQGYKGANVKVGIIDTGIASSHTDLKVVGGASFVSGESYNTDGNGHGTHVAGTVAALDNTTGVLGVAPNVSLYAIKVLNSSGSGTYSAIVSGIEWATQNGLDVINMSLGGPSGSTALKQAVDKAYASGIVVVAAAGNSGSSGSQNTIGYPAKYDSVIAVGAVDSNKNRASFSSVGSELEVMAPGVSVYSTYPSNTYTSLNGTSMASPHVAGAAALILSKYPTLSASQVRNRLSSTATNLGDSFYYGKGLINVEAAAQ
Question: What does the source list for B2?
Answer: Digestion activity (U) (elastin): 10500 U; Digestion activity (U) (collagen): 37000 U; Digestion activity (U) (keratin): 7190 U; Digestion activity (U) (casein): 327000 U
